Assay results published in US5334583A (priority 1982, dated 1994).

Assays:
Format in all cases: in vivo
[1] = system: Influenza B/Hong Kong/5/72; assay: Survival of mice infected intranasally with lethal dose of Influenza B/Hong Kong/5/72
Herpes Simplex 1/Virtue = assay: Survival of mice infected intranasally with lethal dose of Herpes Simplex 1/Virtue; settings: intranasal, control 40
Herpes Simplex 1/TUP = assay: Survival of mice infected intranasally with lethal dose of Herpes Simplex 1/TUP; settings: intranasal, control 20
Experimental: Groups of 30, 40 or 50 female MF-2f SPF mice each having a body weight of 14-16 g, or of 12-14 g in the case of tests with herpes simplex 1 viruses, are infected intranasally, under light anaesthesia using a mixture of equal parts of ether, ethanol and chloroform, with lethal doses (approximately LD80-90; number of plaque-forming units [PFU] see Table 1 ) of the undermentioned virus strains in the form of 0.05 ml in each case of a suspension of the viruses.
At the time indicated below (days) in relation to the day of infection, 10 or 20 of these mice are administered once (single dose) the quantities indicated in Table 1 of the active ingredient, the sodium salt of N-acetylmuramyl-L-alanyl-D-isoglutaminyl-L-alanine-2-(1,2-dipalmitoyl-sn-glycero-3-hydroxyphosphoryloxy)-ethylamide (compound I), in 0.05 ml or 0.1 ml of phosphate-buffered salt solution (PBS) or in 0.2 ml of a 0.05 % by weight solution of sodium carboxymethylcellulose in double-distilled water, by means of intranasal, intravenous or oral administration respectively, in the manner indicated in Table 1 .
The remainder of the above-mentioned mice, that is 20 or 30, serve as the control, that is to say they either receive no treatment or are given a placebo.
The intranasal administration of compound I is effected under light anaesthesia using a mixture of equal parts of diethyl ether, ethanol and chloroform.

Encephalomyocarditis = assay: Survival of mice infected intranasally with lethal dose of Encephalomyocarditis virus; settings: oral, control 30

Measured: Percentage survivors

CCCCCCCCCCCCCCCC(=O)OC[C@H](COP(=O)(O)OCCNC(=O)[C@H](C)NC(=O)CC[C@@H](NC(=O)[C@H](C)NC(=O)[C@@H](C)O[C@H]1[C@H](O)[C@@H](CO)OC(O)[C@@H]1NC(C)=O)C(N)=O)OC(=O)CCCCCCCCCCCCCCC (stereo partly drawn) [compound I, N-acetylmuramyl-L-alanyl-D-isoglutaminyl-L-alanine-2-(1,2-dipalmitoyl-sn-glycero-3-hydroxyphosphoryloxy)-ethylamide]
80%: [1]; intranasal, day -7, 1 mg/kg single dose, control 30 | [1]; intravenous, day +1, 10 mg/kg single dose, control 42 | [1]; intravenous, day +1, 100 mg/kg single dose, control 42 | [1]; intravenous, day +6, 10 mg/kg single dose, control 42 | [1]; intravenous, day -1, 1 mg/kg single dose, control 42 | [1]; intravenous, day -5, 1 mg/kg single dose, control 42 | [1]; oral, day +7, 100 mg/kg single dose, control 15 | Encephalomyocarditis; day 0, 100 mg/kg single dose | Encephalomyocarditis; day +2, 10 mg/kg single dose
70%: [1]; intravenous, day +2, 10 mg/kg single dose, control 42 | [1]; intravenous, day +6, 1 mg/kg single dose, control 42 | [1]; intravenous, day -7, 1 mg/kg single dose, control 42 | [1]; intravenous, day -7, 10 mg/kg single dose, control 42 | Herpes Simplex 1/TUP; day -7, 10 mg/kg single dose
50%: [1]; oral, day +3, 100 mg/kg single dose, control 15 | [1]; oral, day +7, 1 mg/kg single dose, control 15
90%: [1]; intravenous, day 0, 1 mg/kg single dose, control 42 | [1]; intravenous, day +2, 1 mg/kg single dose, control 42 | [1]; intravenous, day -1, 10 mg/kg single dose, control 42 | [1]; intravenous, day -2, 10 mg/kg single dose, control 42 | [1]; intravenous, day -5, 100 mg/kg single dose, control 42 | [1]; intravenous, day -7, 100 mg/kg single dose, control 42 | [1]; oral, day +7, 10 mg/kg single dose, control 15 | Herpes Simplex 1/Virtue; day -7, 10 mg/kg single dose | Encephalomyocarditis; day +2, 1 mg/kg single dose
60%: [1]; intravenous, day +1, 1 mg/kg single dose, control 42 | Herpes Simplex 1/TUP; day -7, 1 mg/kg single dose | Encephalomyocarditis; day 0, 1 mg/kg single dose | Encephalomyocarditis; day +2, 100 mg/kg single dose
100%: [1]; intranasal, day -7, 10 mg/kg single dose, control 30 | [1]; intravenous, day 0, 10 mg/kg single dose, control 42 | [1]; intravenous, day 0, 100 mg/kg single dose, control 42 | [1]; intravenous, day +2, 100 mg/kg single dose, control 42 | [1]; intravenous, day +6, 100 mg/kg single dose, control 42 | [1]; intravenous, day -1, 100 mg/kg single dose, control 42 | [1]; intravenous, day -2, 1 mg/kg single dose, control 42 | [1]; intravenous, day -2, 100 mg/kg single dose, control 42 | [1]; intravenous, day -5, 10 mg/kg single dose, control 42 | Herpes Simplex 1/Virtue; day -7, 1 mg/kg single dose | Encephalomyocarditis; day 0, 10 mg/kg single dose
